Data taken from PMC8815974, “Mechanistic Insight Into Cadmium- and Zinc-Induced Inactivation of the Candida albicans Pif1 Helicase”.
The exact form of at least one protein or probe is not confirmed. Weaker means in comparison with the reference protein, sequence or condition of that experiment. Protein sequences can lack the tags named with them.

Biological target: T1, CaPif1 (Candida albicans) (UniProt Q59RQ0)
T1 sequence (looked up, limits assumed): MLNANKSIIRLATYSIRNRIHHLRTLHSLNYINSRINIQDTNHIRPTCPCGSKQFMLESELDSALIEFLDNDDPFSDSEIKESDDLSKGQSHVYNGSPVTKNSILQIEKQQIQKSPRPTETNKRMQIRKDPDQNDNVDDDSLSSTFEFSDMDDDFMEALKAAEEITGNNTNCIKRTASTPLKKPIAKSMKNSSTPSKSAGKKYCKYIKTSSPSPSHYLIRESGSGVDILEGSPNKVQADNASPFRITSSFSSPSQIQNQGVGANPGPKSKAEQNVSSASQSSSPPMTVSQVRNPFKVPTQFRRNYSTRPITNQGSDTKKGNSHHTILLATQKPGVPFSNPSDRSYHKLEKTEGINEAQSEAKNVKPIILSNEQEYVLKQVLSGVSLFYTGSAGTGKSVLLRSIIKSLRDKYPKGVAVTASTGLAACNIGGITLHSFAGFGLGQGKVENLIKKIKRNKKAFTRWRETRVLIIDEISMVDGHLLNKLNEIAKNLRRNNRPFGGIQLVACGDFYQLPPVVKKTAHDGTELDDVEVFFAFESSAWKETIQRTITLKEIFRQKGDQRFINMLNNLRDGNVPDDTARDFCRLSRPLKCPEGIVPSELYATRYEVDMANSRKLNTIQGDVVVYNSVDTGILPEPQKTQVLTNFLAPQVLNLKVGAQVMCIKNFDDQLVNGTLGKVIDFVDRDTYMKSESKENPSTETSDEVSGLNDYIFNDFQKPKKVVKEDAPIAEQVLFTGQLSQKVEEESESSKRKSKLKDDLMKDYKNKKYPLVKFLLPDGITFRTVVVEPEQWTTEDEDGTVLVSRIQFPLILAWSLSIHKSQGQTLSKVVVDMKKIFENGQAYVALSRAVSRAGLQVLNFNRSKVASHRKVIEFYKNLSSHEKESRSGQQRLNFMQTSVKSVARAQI
Test: EMSA
Conditions: 1.5 mM Mg2+, no ATP, CaPif1 0-3000 nM; 25 mM Tris-HCl pH 7.5, 50 mM NaCl, 1.5 mM MgCl2, 1 mM DTT, 25 C; EMSA 10 nM DNA, 5 min, 6% native PAGE; recombinant protein; label: 3'-FAM on strand 1

“TATCGAAGAATGTTATGTCATTCCGGCAGATG (double strand) [DS32]”: binds more weakly.
